PubChem BioAssay AID504761 | Drosophila RNAi Screening Center | 2011
Purpose: 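Genome-wide fly cell screen for genes dengue virus requires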 (primary screen). System: D.Mel-2 cells from Drosophila. Reagent: long dsRNA against Drosophila genes. Challenge: infection with dengue virus type 2; dose and infection time not stated. Detection: 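Cells stained for dengue envelope protein and imaged; percent of infected cells per well on duplicate plates, ranked by infection, with stained nuclei counted for cell number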. Direction: infection score: higher = more virus-infected cells; cell count: higher = more cells in the well. Rule for the call: 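Very low infection ranking in both replicate wells (chance probability at most 0.065), then a retest showing infection dropped 1.5-fold or more at p below 0.05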. Calls: active = confirmed: knock-down lowers infection; inactive = not picked or not confirmed.
The screen tested about 22,000 reagents; shown is a random part of those that have a named target and a result. Over the whole deposit, 116 (0.52%) are marked active. 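Calls depend on retest data that are not deposited; infection was ranked per plate without normalising between plates; the unit of the infection score is not given.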 Raw values are not corrected between plates. Unmarked entries are inactive. A plus sign joins genes that one reagent is predicted to hit. Not stated in the record: the amount of reagent, the time to read-out.

| predicted target | DRSC id | infection score, replicate 1 | infection score, replicate 2 | cell count, replicate 1 | cell count, replicate 2 |
| --- | --- | --- | --- | --- | --- |
| CG13857 | DRSC14707 | 17.1 | 21.5 | 6161 | 5557 |
| CG33791 + CG18170 | DRSC08523 | 3.56 | 6.61 | 6037 | 5919 |
| CG33791 + CG18170 | DRSC08601 | 3.48 | 3.5 | 6127 | 5865 |
| CG33791 + CG18170 | DRSC24614 | 3.3 | 2.58 | 6972 | 6269 |
| CG12699 | DRSC06162 | 10.8 | 1.88 | 5676 | 6077 |
| CG12699 | DRSC25679 | 2.08 | 7.09 | 7030 | 6348 |
| BomT3 | DRSC15871 | 12 | 0.75 | 6031 | 6532 |
| BomT3 | DRSC25578 | 3.38 | 6.16 | 6279 | 5645 |
| CG33287 | DRSC22929 | 0.32 | 14 | 6344 | 6358 |
| CG8407 | DRSC07167 | 8.71 | 8.98 | 6358 | 2360 |
| CAP | DRSC06743 | 7.99 | 12.7 | 6281 | 6125 |
| CAP | DRSC06744 | 15.7 | 8.97 | 6081 | 6034 |
| CAP | DRSC06745 | 8.81 | 5.27 | 6661 | 6129 |
| CAP | DRSC06846 | 21.4 | 8.58 | 6150 | 6069 |
| CG46339 | DRSC14136 | 2.05 | 1.88 | 6696 | 6260 |
| CG46339 | DRSC24047 | 2.39 | 5.34 | 6286 | 5843 |
| Dgkepsilon | DRSC07399 | 9.68 | 7.15 | 6745 | 6669 |
| CG9578 | DRSC20694 | 1.67 | 0.65 | 6867 | 6573 |
| CG9578 | DRSC29540 | 25.3 | 7.12 | 5194 | 3523 |
| CG7156 | DRSC16207 | 4.37 | 6.92 | 5933 | 6227 |
| CG7156 | DRSC27345 | 3.88 | 14.6 | 6012 | 6513 |
| CycG | DRSC14324 | 1.15 | 1.76 | 6454 | 6465 |
| CycG | DRSC23345 | 2.9 | 30.5 | 6735 | 6413 |
| CG2444 | DRSC19846 | 2.39 | 3.86 | 6201 | 6291 |
| CG4066 | DRSC15541 | 2.04 | 17.6 | 6901 | 5591 |
| CG4066 | DRSC29744 | 9.18 | 5.72 | 6516 | 5978 |
| CG13133 | DRSC02230 | 5.01 | 4.61 | 6644 | 6978 |
| SecS | DRSC12222 | 1.12 | 16.6 | 5915 | 5870 |
| CG18131 | DRSC22983 | 1.98 | 10 | 5923 | 6841 |
| CG8229 | DRSC07114 | 6.03 | 5.26 | 6536 | 6819 |
| CG8229 | DRSC27067 | 14.6 | 11.3 | 6660 | 6675 |
| CG9517 (retired record) | DRSC20192 | 1.21 | 1.81 | 6292 | 6642 |
| CG9517 (retired record) | DRSC20193 | 1.15 | 3.16 | 6348 | 6844 |
| CG9517 (retired record) | DRSC23550 | 4.59 | 1.91 | 6661 | 6821 |
| ppk24 | DRSC15093 | 7.6 | 5.93 | 6300 | 6793 |
| CG15136 | DRSC02436 | 1.52 | 3.77 | 6691 | 6740 |
| Cpr64Aa | DRSC08460 | 4.94 | 1.32 | 5607 | 5587 |
| Cpr64Aa | DRSC23801 | 2.27 | 1.51 | 6091 | 6015 |
| CG15605 | DRSC06558 | 9.25 | 20.8 | 6520 | 4465 |
| CG12986 | DRSC19506 | 2.25 | 0.78 | 6658 | 6769 |
| CG17134 | DRSC02583 | 4.13 | 5.25 | 6903 | 6548 |
| VhaM9.7-b | DRSC11841 | 7.43 | 22.5 | 4657 | 3656 |
| CG13786 | DRSC02289 | 2.53 | 13.1 | 5893 | 6062 |
| CG13786 | DRSC27762 | 17.4 | 7.68 | 6559 | 6533 |
| CG33288 | DRSC11484 | 3.39 | 0.91 | 6171 | 6510 |
| CG15036 | DRSC17968 | 12 | 5.65 | 4271 | 5473 |
| CG15036 | DRSC26078 | 8.62 | 6.92 | 6151 | 6505 |
| Nepl8 | DRSC02759 | 13.5 | 7.44 | 5498 | 5756 |
| CG11113 | DRSC06039 | 2.08 | 3.83 | 6305 | 6679 |
| CG31380 | DRSC15688 | 1.03 | 0.77 | 6201 | 6883 |
| Tpc1 | DRSC15614 | 7.05 | 4.3 | 6142 | 6001 |
| Tpc1 | DRSC16074 | 2.93 | 3.25 | 6313 | 6305 |
| Tpc1 | DRSC29490 | – | 11.7 | 332 | 2703 |
| tra2 | DRSC07708 | 10.3 | 8.61 | 6114 | 5530 |
| tra2 | DRSC29704 | 16.7 | 10 | 6144 | 5917 |
| CG34176 | DRSC00435 | 2.64 | 1.71 | 7033 | 7006 |
| Rab23 | DRSC12305 | 3.57 | 6.29 | 6465 | 6101 |
| Rab23 | DRSC25339 | 3.83 | 5.81 | 5879 | 6631 |
| Nup50 | DRSC06827 | 3.86 | 12.6 | 5952 | 5802 |
| Nup50 | DRSC26470 | 2.51 | 7.17 | 5746 | 5553 |
| bor | DRSC16915 | 6.54 | 15.3 | 4254 | 3294 |
| CG7546 | DRSC08885 | 4.95 | 3.27 | 5961 | 5375 |
| CG7546 | DRSC10871 | 5.11 | 3.81 | 6579 | 5746 |
| CG7546 | DRSC22148 | 5.26 | 18.9 | 6880 | 6218 |
| Ccdc58 + CG34116 | DRSC10105 | 2.56 | 7.72 | 6408 | 6125 |
| brwl | DRSC01080 | 2.84 | 1.73 | 5324 | 5492 |
| brwl | DRSC24965 | 10.9 | 4.05 | 6871 | 6143 |
| Crtp | DRSC04604 | 8.44 | 3.01 | 6383 | 6905 |
| Crtp | DRSC26423 | 5.7 | 3.09 | 6314 | 6671 |
| CG34315 + Orc3 | DRSC07642 | 5.82 | 6.47 | 6723 | 6798 |
| CG34315 + Orc3 | DRSC25371 | 6.36 | 4.7 | 6113 | 6472 |
| CG12204 | DRSC19442 | 8.6 | 1.7 | 6585 | 6601 |
| CG12204 | DRSC26143 | 6.27 | 3.16 | 6429 | 6295 |
| CG11241 | DRSC11641 | 10.3 | 2.4 | 3969 | 6620 |
| CG11241 | DRSC22165 | 6.54 | 13.1 | 5336 | 6194 |
